PubChem BioAssay AID1259414 | Drosophila RNAi Screening Center – 2018
Purpose: 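Host factors increasing or decreasing Wolbachia levels in cultured fly cells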 (primary screen). System: Drosophila JW18 cells infected with Wolbachia. Reagents: long dsRNA against Drosophila genes, 0.25 µg dsRNA per well of a 384-well plate. Duration: 5 days. Treatment: cells persistently infected with Wolbachia before knock-down; no added drug. Detection: 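Automated imaging of bacterial rRNA staining divided by host cell count, reported as plate-normalised robust z-score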. Direction: Wolbachia per cell robust z: higher = more Wolbachia per host cell than the plate typical. Rule for the call: 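Active if absolute robust z reaches 1.5 in two or more of three replicates, leaving out multi- or no-target dsRNAs, genes unexpressed in JW18 and A1 wells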.
The screen tested about 24,000 reagents; shown is an unselected part of those with a known target gene and a result. In the full data, about 1,210 (5%) were called active. 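Inactive calls also include excluded dsRNAs with several or no targets, genes unexpressed in JW18, and well A1, regardless of score.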 A plus sign joins genes that one reagent is predicted to hit.

no.	gene	DRSC id	Wolbachia per cell robust z, rep 1	Wolbachia per cell robust z, rep 2	Wolbachia per cell robust z, rep 3	outcome
1	Caper	DRSC02137	1.83	0.516	0.596	inactive
2	CG15638	DRSC01875	0.399	-0.818	1.04	inactive
3	lncRNA:CR40172	DRSC37759	-5.15	0.212	-0.323	inactive
4	SmydA-7	DRSC07340	0.128	-1.12	-0.0607	inactive
5	Stt3A	DRSC20514	0.0102	-0.533	-0.742	inactive
6	Stt3A	DRSC24884	0.438	0.288	-0.462	inactive
7	SmD1	DRSC09800	0.966	-0.44	-7.72	inactive
8	SmD1	DRSC28571	1.53	1.68	3.75	active
9	SmD1	DRSC41299	-0.0182	1.5	-2.24	inactive
10	Npc2f	DRSC15980	-1.28	0.213	0.63	inactive
11	CG6927	DRSC18407	-0.391	0.377	2.74	inactive
12	CG5250	DRSC15752	0.498	-0.256	0.668	inactive
13	neur + asRNA:CR31429	DRSC17013	-0.39	-1.36	-2.12	inactive
14	neur + asRNA:CR31429	DRSC38427	-2.69	0.978	0.351	inactive
15	UQCR-6.4	DRSC06454	-1.63	-0.264	0.235	inactive
16	UQCR-6.4	DRSC28738	1.09	0.565	-0.433	inactive
17	smg	DRSC11397	-0.523	-1.03	-0.338	inactive
18	smg	DRSC28033	0.956	-0.456	-0.525	inactive
19	Pgant4	DRSC00717	-4.39	0.067	-0.186	inactive
20	Pgant4	DRSC29585	0.205	-0.534	0.481	inactive
21	CG16772	DRSC02516	-0.19	-5.4	-3.53	inactive
22	CG16772	DRSC25947	0.661	-0.306	0.375	inactive
23	SdhBL	DRSC20039	1.03	0.698	0.837	inactive
24	CG17782	DRSC23227	0.345	0.61	0.478	inactive
25	FLASH	DRSC06872	0.527	-0.947	-1.18	inactive
26	FLASH	DRSC26747	-1.02	0.874	-1.66	inactive
27	CG14315	DRSC14794	0.786	1.55	0.532	inactive
28	Ptpmeg2	DRSC18277	-2.19	0.0687	-2.42	active
29	Ptpmeg2	DRSC18278	0.688	1.07	0.803	inactive
30	Ptpmeg2	DRSC23303	0.839	0.895	1.12	inactive
31	Ptpmeg2	DRSC26646	-3.96	-1.05	-1.18	inactive
32	Ptpmeg2	DRSC41570	-1.83	-0.982	0.433	inactive
33	CASK	DRSC14588	1.04	0.474	-0.281	inactive
34	CASK	DRSC16597	-0.44	-0.0773	0.184	inactive
35	CASK	DRSC16598	-0.212	0.269	-6.43	inactive
36	CASK	DRSC21917	-1.87	-0.281	0.103	inactive
37	CASK	DRSC29057	-0.852	-0.773	-0.673	inactive
38	Srx	DRSC20005	-1.37	-1.22	-0.859	inactive
39	Ptp52F	DRSC06717	0.598	-0.205	-0.442	inactive
40	Antdh	DRSC20307	0.277	0.444	1.24	inactive
41	Antdh	DRSC25689	0.186	-1.02	0.542	inactive
42	slv	DRSC07685	0.325	0.651	-0.253	inactive
43	CG15200	DRSC19647	0.798	1.19	1.18	inactive
44	CG15200	DRSC24618	-0.14	0.347	-0.176	inactive
45	CG42566	DRSC03949	0.47	0.587	0.172	inactive
46	CG9839	DRSC16574	-2.35	-7.16	-0.119	active
47	fand	DRSC06967	2.47	2.96	4.48	active
48	fand	DRSC27505	0.0122	-1.8	-0.474	inactive
49	fand	DRSC39027	1.12	0.902	1.46	inactive
50	Arpc1	DRSC03438	2.1	-0.956	0.0748	inactive
51	Arpc1	DRSC29641	1.01	-1.07	0.818	inactive
52	stum	DRSC04268	0.971	-0.632	-0.298	inactive
53	stum	DRSC04270	-5.94	-0.716	-1.22	inactive
54	Glys	DRSC16130	-0.337	1	0.637	inactive
55	Membrin	DRSC10448	0.158	-0.7	0.743	inactive
56	CG34190	DRSC38738	0.515	1.26	-0.285	inactive
57	lute	DRSC14812	0.356	1.1	1.04	inactive
58	lute	DRSC15769	-5.95	-2.36	-4.36	active
59	lute	DRSC25911	-2.1	1.61	0.347	inactive
60	lute	DRSC27206	-5.99	0.245	-1.01	inactive
61	Prp19	DRSC07434	1.12	0.342	-1.27	inactive
62	Prp19	DRSC23905	1.31	1.55	0.54	inactive
63	CG12362	DRSC09884	-0.536	-2.07	0.965	inactive
64	CG11382	DRSC18624	0.296	1.05	-0.104	inactive
65	kl-5	DRSC20707	-0.0891	0.000528	-1.51	inactive
66	kl-5	DRSC20736	-2.72	0.436	-9.9	inactive
67	kl-5	DRSC20773	-2.99	-1.66	-1.12	inactive
68	kl-5	DRSC21161	-1.03	0.676	-2.79	inactive
69	kl-5	DRSC38712	-0.0834	0.0978	0.107	inactive
